Compound potency records, mixed from different reports. Data source: NIAID ChemDB in PubChem.

Shared fields: enzyme or target tests; agent: HIV-1; target: Protease

Neighbouring rows are from separate reports. An empty or dashed field is not shown. ICn: concentration for n% inhibition.

compound | read by | endpoint | changes | result
CC(=O)N[C@@H](Cc1c[nH]c2ccccc12)C(=O)N[C@H](C(=O)N[C@@H](Cc1ccccc1)[C@H](O)[C@@H](O)[C@H](Cc1ccccc1)NC(=O)[C@@H](NC(=O)[C@H](Cc1c[nH]c2ccccc12)NC(C)=O)C(C)C)C(C)C |  | IC50 |  | 0.005 µM
CC(C)C[C@H](NC(=O)[C@H](CCC(N)=O)NC(=O)CCCCCCCCCCCCCCC(=O)N[C@@H](CC(N)=O)C(=O)N[C@@H](Cc1ccccc1)C(=O)O)C(=O)N[C@@H](Cc1ccccc1)C(N)=O |  | IC50 |  | >5.5 µM
CN(C)C(=O)NCCCCC(C)(C)CN(C[C@@H](O)[C@H](Cc1ccccc1)NC(=O)O[C@H]1CO[C@H]2OCC[C@H]21)S(=O)(=O)c1cccc(N)c1 | fluorescence | Ki |  | <0.001 µM
Cc1cccc(C)c1OCC(=O)N[C@@H](Cc1ccccc1)[C@@H](O)C[C@H](Cc1ccccc1)NC(=O)[C@H](C(C)C)N1CCOC1=O |  | IC50 |  | <0.0005 µM
CC(C)(CCCCNC(=O)c1ccc(F)cc1)CN(C[C@@H](O)[C@H](Cc1ccccc1)NC(=O)O[C@H]1CO[C@H]2OCC[C@H]21)S(=O)(=O)c1ccc2c(c1)OCO2 | fluorescence | Ki |  | <0.001 µM
O=C(N[C@H](Cc1ccc(O)c(-c2cc(C[C@@H](NC(=O)OCc3ccccc3)C(=O)O)ccc2O)c1)C(=O)O)OCc1ccccc1 |  | Ki |  | 6.8 µM
Nc1ccc(C[C@H](NC(=O)OCC2c3ccccc3-c3ccccc32)C(=O)NCC[C@@H](CO)NC(=O)[C@H](Cc2ccc(N)cc2)NC(=O)OCC2c3ccccc3-c3ccccc32)cc1 | HPLC | IC50 |  | >5 µM
CC(C)OC(=O)NCCCCCC(C)(C)CN(C[C@@H](O)[C@H](Cc1ccccc1)NC(=O)O[C@H]1CO[C@H]2OCC[C@H]21)S(=O)(=O)c1ccc2c(c1)OCO2 | fluorescence | Ki |  | <0.001 µM
O=C(N[C@H]1c2ccccc2C[C@H]1O)[C@H](CCc1ccccc1)CS(=O)C[C@H](CCc1ccccc1)C(=O)N[C@H]1c2ccccc2C[C@H]1O |  | IC50 |  | 0.0531 µM
CC(O)[C@H](NC(=O)CCCCCCCCCCCCCCC(=O)N[C@@H](CC(N)=O)C(=O)N[C@@H](Cc1ccccc1)C(=O)O)C(=O)N[C@@H](CC1CCCCC1)C(=O)N[C@@H](Cc1ccccc1)C(N)=O |  | Ki |  | 0.69 µM
CC(C)(CCCN)CN(C[C@@H](O)[C@H](Cc1ccccc1)NC(=O)O[C@H]1CO[C@H]2OCC[C@H]21)S(=O)(=O)c1cccc(N)c1 | fluorescence | Ki |  | <0.001 µM
CC(C)[C@H](NC(=O)[C@@H](NC(=O)c1cc2ccccc2c(Cc2c(O)c(C(=O)N[C@H](C(=O)N[C@H](C(=O)O)C(C)C)C(C)C)cc3ccccc23)c1O)C(C)C)C(=O)O |  | Ki |  | 6.9 µM
CC[C@H](C)[C@H](NC(=O)[C@@H](NC(=O)CCCCCCCCCCCCCCC(=O)N[C@@H](CC(N)=O)C(=O)N[C@@H](Cc1ccccc1)C(=O)O)C(C)O)C(=O)N[C@@H](Cc1ccccc1)C(N)=O |  | IC50 | PR-L10I K45R I54V L63P A71V V82T L90M I93L | ~2.48 µM
CCCC[C@@H](CN[C@@H](CCC(N)=O)C(=O)N[C@@H](CCCN=C(N)N)C(N)=O)NC(=O)[C@H](CCCC)NC(=O)C(NC(=O)C(NC(C)=O)[C@@H](C)O)[C@@H](C)CC | HPLC | IC50 |  | <2.17 µM
O=C(COc1ccccc1)N[C@@H](Cc1ccccc1)[C@H](O)[C@@H](O)[C@H](Cc1ccccc1)NC(=O)[C@H](NC(=O)c1cc(=O)c2ccccc2[nH]1)c1cccs1 |  | IC50 |  | 0.008 µM
CN=C(NC#N)NCCCC(C)(C)CN(C[C@@H](O)[C@H](Cc1ccccc1)NC(=O)O[C@H]1CO[C@H]2OCC[C@H]21)S(=O)(=O)c1ccc2c(c1)OCO2 | fluorescence | Ki |  | <0.001 µM
CC(C)[C@H](NC(=O)[C@H](Cc1ccccc1)C[C@H](O)[C@H](Cc1ccccc1)NC(=O)OC(C)(C)C)C(=O)N[C@@H](Cc1ccccc1)C(=O)N1CCOCC1 |  | Ki |  | 0.0002 µM
O=C(COc1ccccc1)N[C@@H](Cc1ccccc1)[C@H](O)[C@@H](O)[C@H](Cc1ccccc1)NC(=O)COc1ccccc1 |  | IC50 |  | 1 µM
CC(C)C[C@H](NC(=O)[C@@H](NC(=O)CCCCCCCCCCCCCCC(=O)N[C@@H](CC(N)=O)C(=O)N[C@@H](Cc1ccccc1)C(=O)O)C(C)O)C(=O)N[C@@H](Cc1cc(I)c(Oc2cc(I)c(O)c(I)c2)c(I)c1)C(N)=O |  | Ki |  | 0.071 µM
Oc1cc(O)cc(Oc2c(O)cc(O)c3c2Oc2c(O)cc(O)cc2O3)c1 | HPLC | IC50 |  | >100 µM
O=c1oc(-c2ccccc2)cc(O)c1SCCc1ccccc1 |  | IC50 |  | 1.26 µM
C/C(=C/C(=O)N[C@@H](CCc1ccccc1)[C@H](O)CN(Cc1cccs1)S(=O)(=O)c1cc(F)c(F)cc1F)C(F)(F)F |  | Ki |  | 0.053 µM
CC1CCC2C(C)(C)C(O)CCC2(C)C12Cc1c(cc3c(c1O)CN(CCO)C3=O)O2 | substrate cleavage / HPLC | IC50 |  | 115 µM
CCCS(=O)(=O)NCCC(C)(C)CN(C[C@@H](O)[C@H](Cc1ccccc1)NC(=O)O[C@H]1CO[C@H]2OCC[C@H]21)S(=O)(=O)c1ccc2c(c1)OCO2 | fluorescence | Ki |  | <0.001 µM
O=C(N[C@@H](Cc1ccccc1)C(=O)NCC[C@@H](CO)NC(=O)[C@H](Cc1ccccc1)NC(=O)OCC1c2ccccc2-c2ccccc21)OCC1c2ccccc2-c2ccccc21 | HPLC | IC50 |  | 0.165 µM
Oc1cc(O)cc(Oc2c(O)cc(O)c3c2Oc2c(O)cc4oc5c(Oc6cc(O)cc(O)c6)c(O)cc(O)c5c4c2O3)c1 | HPLC | IC50 |  | >100 µM
Cc1ccccc1CNC(=O)[C@H]1N(C(=O)[C@@H](O)[C@H](CCc2ccccc2)NC(=O)OC2C[C@@H]3OCO[C@@H]3C2)CSC1(C)C |  | Ki |  | 0.00065 µM
CC(C)(CCCNC(=S)NC(C)(C)C)CN(C[C@@H](O)[C@H](Cc1ccccc1)NC(=O)O[C@H]1CO[C@H]2OCC[C@H]21)S(=O)(=O)c1ccc2c(c1)OCO2 | fluorescence | Ki |  | <0.001 µM
OC[C@H]1O[C@@H](Oc2cc(O)c(O)c(/C=C/c3ccc(O)cc3)c2)[C@H](O)[C@@H](O)[C@@H]1O | FRET | IC50 |  | 126 µM
O=c1oc(-c2ccccc2)cc(O)c1Sc1ccccc1 |  | Ki |  | 1.1 µM
NC(=O)C[C@H]1C[C@@H](C2=CN[C@@](Cc3ccccc3)(C[C@H](O)[C@H](CCc3ccccc3)NC(=O)O[C@H]3CCOC3)C2=O)c2ccccc21 |  | IC50 |  | 0.0024 µM
CC(C)(CCN)CN(C[C@@H](O)[C@H](Cc1ccccc1)NC(=O)O[C@H]1CO[C@H]2OCC[C@H]21)S(=O)(=O)c1ccc2c(c1)OCO2 | fluorescence | Ki |  | <0.001 µM
CCOC(=O)COc1ccc(-c2cc(O)c(SCCc3ccccc3)c(=O)o2)cc1 |  | IC50 |  | 0.57 µM
COc1ccc(S(=O)(=O)N(CC2CCCC2)C[C@@H](O)[C@H](Cc2ccccc2)NC(=O)O[C@@H]2CCOC2)cc1 | HPLC | Ki |  | <0.0001 µM
Cc1cccc(C)c1OCC(=O)N[C@@H](Cc1ccccc1)[C@@H](O)C[C@H](Cc1ccccc1)NC(=O)[C@H](C(C)C)N1CCNC1=S |  | IC50 |  | <0.0005 µM
CC(C)(C)OC(=O)N[C@@H](Cc1ccccc1)C(=O)NCCC[C@@H](CO)NC(=O)[C@H](Cc1ccccc1)NC(=O)OC(C)(C)C | HPLC | IC50 |  | 1.55 µM
CCCOC(=O)NCCCCC(C)(C)CN(C[C@@H](O)[C@H](Cc1ccccc1)NC(=O)O[C@H]1CO[C@H]2OCC[C@H]21)S(=O)(=O)c1ccc2c(c1)OCO2 | fluorescence | Ki |  | <0.001 µM
Cc1cccc(C)c1OCC(=O)N[C@@H](Cc1ccccc1)[C@@H](O)C[C@H](Cc1ccccc1)NC(=O)[C@H](C(C)C)N1CCCOC1=O |  | IC50 |  | <0.0005 µM
CC(C)C[C@H](NC(=O)[C@H](Cc1ccccc1)NC(=O)CCCCCCCCCCCCCCC(=O)N[C@@H](CC(N)=O)C(=O)N[C@@H](Cc1ccccc1)C(=O)O)C(=O)N[C@@H](Cc1ccccc1)C(N)=O |  | Ki |  | 0.18 µM
CC(C)CN(C[C@@H](O)[C@H](Cc1ccccc1)NC(=O)[C@H](C)N1C(=O)c2ccccc2C1=O)S(=O)(=O)c1ccc(Br)cc1 |  | IC50 |  | >0.1 µM
CC(C)(CCCCCNC(=O)C1CC1)CN(C[C@@H](O)[C@H](Cc1ccccc1)NC(=O)O[C@H]1CO[C@H]2OCC[C@H]21)S(=O)(=O)c1ccc2c(c1)OCO2 | fluorescence | Ki |  | <0.001 µM
CC(C)CN(C[C@@H](O)[C@H](Cc1ccccc1)NC(=O)[C@H](C(C)C)N1C(=O)c2ccccc2C1=O)S(=O)(=O)c1ccc(Br)cc1 |  | IC50 |  | 0.027 µM
CC(C)(C)OC(=O)N[C@@H](Cc1ccccc1)C(=O)NCCCC[C@@H](CO)NC(=O)[C@H](Cc1ccccc1)NC(=O)OC(C)(C)C | HPLC | IC50 |  | 4.12 µM
CC(C)(CCCCNC(=O)C1CCCC1)CN(C[C@@H](O)[C@H](Cc1ccccc1)NC(=O)O[C@H]1CO[C@H]2OCC[C@H]21)S(=O)(=O)c1ccc2c(c1)OCO2 | fluorescence | Ki |  | <0.001 µM
COc1ccc(S(=O)(=O)N(CC(C)C)C[C@@H](O)[C@H](CCc2ccccc2)NC(=O)[C@@H]2CN(c3cccc(C(F)(F)F)c3)C(=O)O2)cc1 |  | Ki |  | 0.000006 µM
CCCN=C(NC#N)NCCC(C)(C)CN(C[C@@H](O)[C@H](Cc1ccccc1)NC(=O)O[C@H]1CO[C@H]2OCC[C@H]21)S(=O)(=O)c1ccc2c(c1)OCO2 | fluorescence | Ki |  | <0.001 µM
CC1CCC2C(C)(C)C(O)CCC2(C)C12Cc1c(cc3c(c1O)CN(C(CCC(=O)O)C(=O)O)C3=O)O2 | substrate cleavage / HPLC | IC50 |  | 288 µM
CC(C)C[C@H](NC(=O)[C@@H](NC(=O)CCCCCCCCCCCCCCC(=O)N(O)[C@@H](CC(N)=O)C(=O)N[C@@H](Cc1ccccc1)C(=O)O)C(C)O)C(=O)N[C@@H](Cc1ccccc1)C(N)=O |  | IC50 |  | 4.4 µM
CC(C)(CCCNS(=O)(=O)c1ccccc1)CN(C[C@@H](O)[C@H](Cc1ccccc1)NC(=O)O[C@H]1CO[C@H]2OCC[C@H]21)S(=O)(=O)c1ccc2c(c1)OCO2 | fluorescence | Ki |  | <0.001 µM
CC(=O)Nc1ccc(S(=O)(=O)N(CC(C)C)C[C@@H](O)[C@H](Cc2ccccc2)NC(=O)O[C@H]2CCOC2)cc1 | HPLC | Ki |  | 0.02 µM
CN(C)C(=NCCCCC(C)(C)CN(C[C@@H](O)[C@H](Cc1ccccc1)NC(=O)O[C@H]1CO[C@H]2OCC[C@H]21)S(=O)(=O)c1ccc2c(c1)OCO2)NC#N | fluorescence | Ki |  | <0.001 µM
CC(C)[C@H](NC(=O)[C@H](OCc1ccccc1)[C@H](O)[C@@H](O)[C@@H](OCc1ccccc1)C(=O)N[C@H]1c2ccccc2C[C@H]1O)C(=O)NCCF |  | Ki |  | 0.001 µM
CC(C)CN(C[C@@H](O)[C@H](Cc1ccccc1)NC(=O)CCN1C(=O)c2ccccc2C1=O)S(=O)(=O)c1ccc(Br)cc1 |  | IC50 |  | 0.048 µM
CC(C)(CCN)CN(C[C@@H](O)[C@H](Cc1ccccc1)NC(=O)O[C@H]1CO[C@H]2OCC[C@H]21)S(=O)(=O)c1cccc(N)c1 | fluorescence | Ki |  | <0.001 µM
CC1CCC2C(C)(C)C(O)CCC2(C)C12Cc1c(cc3c(c1O)CNC3=O)O2 | substrate cleavage / HPLC | IC50 |  | 161 µM
CC(C)NC(=S)NCCCCC(C)(C)CN(C[C@@H](O)[C@H](Cc1ccccc1)NC(=O)O[C@H]1CO[C@H]2OCC[C@H]21)S(=O)(=O)c1ccc2c(c1)OCO2 | fluorescence | Ki |  | <0.001 µM
COC(=O)CCCOc1ccc2ccc(OCCCC(=O)N[C@H](C(=O)N[C@@H](CC(C)C)C(=O)N[C@@H](CC(N)=O)C(=O)N[C@@H](Cc3ccccc3)C(=O)OC)[C@@H](C)O)cc2c1 | fluorescence | IC50 |  | >7 µM
COc1ccc(S(=O)(=O)N(C[C@@H](O)[C@H](Cc2ccccc2)NC(=O)O[C@H]2CO[C@H]3OCC[C@H]32)CC(C)(C)CCNC(=O)N(C)C)cc1 | fluorescence | Ki |  | <0.001 µM
COc1ccc(S(=O)(=O)N(CC2CCCC2)C[C@@H](O)[C@H](Cc2ccccc2)NC(=O)OCc2cccnc2)cc1 | HPLC | Ki |  | <0.0001 µM